Measurements as given in patent US20210346339A1, “THERAPEUTIC FLAVONOID BASED ANTIVIRAL AGENTS” (priority 2016, published 2021).
Values after ≈ are worked out from the molar mass of the structure shown.

Tested on: cell culture-derived HCV (HCVcc)
Conditions: HCVcc in Huh-7.5 cells, 72 hr; test concentration 100 μg/mL

For `COc1cc(O)c2c(=O)c(OC)c(-c3ccc(O)c(O)c3)oc2c1`, the EC50 was 1.37 µg/mL (≈ 4.15 µM).
